Source: patent US20100247549A1

How the values were obtained:
[1] = molecular target: Envelope glycoprotein (E) of antigenic variant DENV-4 v3 (Glu for Lys at position 174 in E) (dengue virus type 4) (UniProt P09866); assay: equilibrium ELISA; ELISA Kd against that for parental DENV-4 (FRhL)
[2] = molecular target: Envelope glycoprotein (E) of antigenic variant DENV-4 v4 (Leu for Pro at position 176 in E) (dengue virus type 4) (UniProt P09866); assay: equilibrium ELISA; ELISA Kd against that for parental DENV-4 (C6/36)

Humanized IgG 5H2 ΔD (IgG1 5H2 with a 9-amino-acid deletion, positions 231-239, at the N-terminus of the CH2 domain) (antibody)
Fold Reduction [1]: > 100 fold
Fold Reduction [2]: 2.29 fold
